{
  "source": "paper PMC5033645",
  "about": "(Nature structural & molecular biology, 2016)",
  "target": "T1, SUMO-gSV2C: glycosylated human SV2C-L4 (V473-T567) with SUMO, secreted from HEK293 cells (human, UniProt Q496J9 473-567)",
  "T1 sequence": "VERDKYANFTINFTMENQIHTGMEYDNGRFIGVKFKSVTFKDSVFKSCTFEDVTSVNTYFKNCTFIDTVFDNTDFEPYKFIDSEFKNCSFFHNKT",
  "test": "SPR",
  "data": [
    {"binder": "BoNT/A1 receptor-binding domain (HCA), wild type (domain or fragment) not shown", "values": [
      {"measurement": "fold slower association rate of the high affinity component than on bSV2C", "value": "~4", "unit": "fold"}
    ]}
  ]
}
